Columns and labels:
[1] = target: T1, GST-rSV2B 413–535, rat, Q63564 413-535
T1 sequence: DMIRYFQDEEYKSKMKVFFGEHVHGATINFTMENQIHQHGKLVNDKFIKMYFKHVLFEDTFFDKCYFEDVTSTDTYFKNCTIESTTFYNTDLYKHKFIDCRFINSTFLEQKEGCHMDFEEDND

[2] = target: GST-rSV2A 468–594, rat, Q02563 468-594

With “HC-fragment of BoNT/A fused to a C-terminal Streptag (HCAS)” the absolute binding in mol % [1] was 5.5 mol % and the absolute binding in mol % [2] was 7.4 mol %.

From publication PMC4885069, “Botulinum Neurotoxin Serotype A Recognizes Its Protein Receptor SV2 by a Different Mechanism than Botulinum Neurotoxin B Synaptotagmin” (2016)
